Pooled drug test results. Numbers come from NIAID ChemDB, via PubChem.

All rows: growth or infection tests; agent: HIV-1; cell line: MT-2; endpoint: EC50

Conditions beyond the fields shown may differ between rows. An empty or dashed field is not shown. ECn: concentration that inhibits the pathogen or its effect by n%.

SMILES,strain or isolate,mutations,read by,value
CC(C)=CCN1Cc2cccc3[nH]c(=S)n(c23)C[C@@H]1C,Nevirapine-resistant,,cytopathic effect,0.7 ± 0.1 µM
CC(C)CCCN1C(=O)N(CCCC(C)C)[C@H](Cc2ccccc2)[C@H](O)[C@@H](O)[C@H]1Cc1ccccc1,RF,,hybridisation,<8.1 µM
Nc1nc(N)c2ncn([C@H]3CO[C@@H](CO)O3)c2n1,,RT-M41L K70R T215Y K219Q,,6.4 µM
Cc1cn([C@H]2C=C[C@@H](CO)O2)c(=O)[nH]c1=O,IIIB,,cytopathic effect / MTT,2.4 µM
C[C@H](Cn1cnc2c(N)ncnc21)OCP(=O)(O)O,G691-2 AZT-resistant (RT D67N K70R T215Y K219Q),RT-D67N K70R T215Y K219Q,p24,0.65 µM
Cc1cn([C@H]2C[C@H](N=[N+]=[N-])[C@@H](CO)O2)c(=O)[nH]c1=O,Site-directed mutant,RT-K65R,cytopathic effect / XTT,0.5 µM
Cc1ccnc2c1NC(=O)c1cccnc1N2C1CC1,PDBC,,RT activity,0.054 µM
O=C1N(Cc2ccc3cn[nH]c3c2)[C@H](CCc2ccccc2)[C@@H](O)[C@@H](Cc2ccccc2)N1Cc1ccc2cn[nH]c2c1,RF,,cytopathic effect / MTT,<0.032 µM
CC(C)CN(C[C@@H](O)[C@H](Cc1ccccc1)NC(=O)O[C@H]1CCOC1)S(=O)(=O)c1ccc(N)cc1,BRU,,RT activity,0.0398 µM
Cc1cn([C@H]2C=C[C@@H](CO)O2)c(=O)[nH]c1=O,,RT-delta67 T69G,p24,0.5 µM
Cc1cn([C@H]2C[C@H](N=[N+]=[N-])[C@@H](CO)O2)c(=O)[nH]c1=O,,RT-Q151M A62V,cytopathic effect / MTT,>10 µM
Cc1cn([C@H]2C=C[C@@H](CO)O2)c(=O)[nH]c1=O,Clinical isolate,M41L/M184V/L210W/T215Y,recombinant virus assay,0.576 µM
CC(C)CN(C[C@@H](O)[C@H](Cc1ccccc1)NC(=O)[C@@H](NC(=O)CNCc1cccc(F)c1)C(C)(C)C)S(=O)(=O)c1ccc(N)cc1,IIIB,,virus yield,<0.0088 µM
O=c1[nH]cnc2c1ncn2[C@H]1CC[C@@H](CO)O1,M184V(RT-M184V),RT-M184V,p24,2.3 µM
CCCN1C(=O)N(CCC)[C@H](Cc2ccccc2)[C@H](O)[C@@H](O)[C@H]1Cc1ccccc1,RF,,hybridisation,<54 µM
CC(C)(C)NC(=O)[C@@H]1CN(Cc2cccnc2)CCN1C[C@@H](O)C[C@@H](Cc1ccccc1)C(=O)N[C@H]1c2ccccc2C[C@H]1O,RF,,RT activity,0.0162 µM
Nc1nc(NC2CC2)c2ncn([C@H]3C=C[C@@H](CO)C3)c2n1,HXB2-D WT,,cytopathic effect / XTT,0.43 µM
CC(C)CN(C[C@@H](O)[C@H](Cc1ccccc1)NC(=O)[C@@H](NC(=O)CNCc1cccc(F)c1)C(C)(C)C)S(=O)(=O)c1cccc(N)c1,Clinical isolate E,,virus yield,<0.011 µM
O=c1[nH]cnc2c1ncn2[C@H]1CC[C@@H](CO)O1,IIIB,,cytopathic effect / MTT,17.1 µM
Nc1ncnc2c1ncn2[C@@H]1O[C@H](CO)C[C@@H]1F,L74V(RT-L74V),RT-L74V,p24,14 µM
Cc1ccnc2c1NC(=O)c1cccnc1N2C1CC1,IIIB,,cytopathic effect / MTT,0.12 µM
Nc1nc(=O)n([C@@H]2CS[C@H](CO)O2)cc1F,Clinical isolate,M41L/M184V/L210W/T215Y,recombinant virus assay,>13.3 µM
Nc1ccn([C@H]2CC[C@@H](CO)O2)c(=O)n1,HX(RT-S156A),RT-S156A,RT activity,0.29 µM
Cc1cn([C@H]2C=C[C@@H](CO)O2)c(=O)[nH]c1=O,Site-directed mutant,RT-K65R Y115F,cytopathic effect / XTT,12.06 µM
O=C1N(Cc2ccc3ccccc3c2)[C@H](Cc2ccccc2)[C@H](O)[C@@H](O)[C@@H](Cc2ccccc2)N1Cc1ccc2ccccc2c1,RF,,hybridisation,<3.9 µM
Nc1n[nH]c2ccc(CN3C(=O)N(Cc4ccccc4)[C@H](CCc4ccccc4)[C@@H](O)[C@H]3Cc3ccccc3)cc12,RF,,cytopathic effect / MTT,<0.126 µM
O=C(O)P(=O)(O)O,HXB2,Remodeled TAMs (K70G V75T L228R K219R),,112.3 µM
Cc1ccnc2c1NC(=O)c1cccnc1N2C1CC1,,RT-K103N,p24,2.436 µM
O=C1N(Cc2ccc(F)cc2)[C@H](Cc2ccccc2)[C@H](O)[C@@H](O)[C@@H](Cc2ccccc2)N1Cc1ccc2ccccc2c1,RF,,hybridisation,<1.1 µM
CC(C)[C@H](NC(=O)OCc1ccccc1)C(=O)N[C@@H](Cc1ccccc1)[C@@H](O)[C@H](O)[C@H](Cc1ccccc1)NC(=O)[C@@H](NC(=O)OCc1ccccc1)C(C)C,RF,,,<0.02 µg/mL
Nc1nc(NC2CC2)c2ncn([C@H]3C=C[C@@H](CO)C3)c2n1,,RT-Q151M A62V,cytopathic effect / MTT,7 µM
O=c1[nH]cnc2c1ncn2[C@H]1CC[C@@H](CO)O1,NL4-3,RT-I178L T215Y,p24,0.51 µM
COC(=O)N[C@H](C(=O)N[C@@H](Cc1ccccc1)[C@@H](O)CN(Cc1ccc(-c2ccccn2)cc1)NC(=O)[C@@H](NC(=O)OC)C(C)(C)C)C(C)(C)C,IIIB,K112M K113E V128I,p24 / ELISA,0.0012 µM
CC(C)CN(C[C@@H](O)[C@H](Cc1ccccc1)NC(=O)[C@H](CC(N)=O)NC(=O)c1ccc2ccccc2n1)C(=O)NC(C)(C)C,RF,,,0.044 µM
Nc1cccc(CN2C(=O)N(Cc3cccc(N)c3)[C@H](Cc3ccccc3)[C@H](O)[C@@H](O)[C@H]2Cc2ccccc2)c1,RF,,hybridisation,<0.13 µM
Nc1nc2c(ncn2[C@H]2CO[C@@H](CO)O2)c(=O)[nH]1,HXB2,,cytopathic effect / XTT,0.5 µM
Cc1cn([C@H]2C[C@H](N=[N+]=[N-])[C@@H](CO)O2)c(=O)[nH]c1=O,IIIB,D437N L441P,p24 / ELISA,0.153 µM
CCc1c(Sc2ccccn2)n(COCc2ccccc2)c(=O)[nH]c1=O,Nevirapine-resistant,,cytopathic effect,0.9 ± 0.001 µM
CC1=C(CCC(=O)O)c2cc3nc(cc4[nH]c(cc5[nH]c(cc1n2)c(C)c5C(COC(=O)B([B]C1[B][B][B][B]1)C1[B][B][B][B]1)OC(=O)B([B]C1[B][B][B][B]1)C1[B][B][B][B]1)c(C)c4C(COC(=O)B([B]C1[B][B][B][B]1)C1[B][B][B][B]1)OC(=O)B([B]C1[B][B][B][B]1)C1[B][B][B][B]1)C(C)=C3CCC(=O)O,IIIB,,p24,0.21 ± 0 µM
Cc1cn([C@H]2C[C@H](N=[N+]=[N-])[C@@H](CO)O2)c(=O)[nH]c1=O,HXB2D,,p24,0.013 µM
Nc1ncnc2c1ncn2CCOCP(=O)(O)O,IIIB,,cytopathic effect / MTT,10.8 µM
CC[C@H](C)[C@H](NC(=O)Cc1ccccn1)C(=O)N[C@@H](Cc1ccccc1)[C@@H](O)[C@H](O)[C@H](Cc1ccccc1)NC(=O)[C@@H](NC(=O)Cc1ccccn1)[C@@H](C)CC,RF,,,0.35 µg/mL
Nc1ncnc2c1ncn2CCOCP(=O)(O)O,T215Y(RT-T215Y),RT-T215Y,p24,1.8 µM
CC(=O)c1cccc(CN2C(=O)N(Cc3cccc(C(C)=O)c3)[C@H](Cc3ccccc3)[C@H](O)[C@H]2CCc2ccccc2)c1,RF,,cytopathic effect / MTT,<0.049 µM
CC(C)c1nc(CN(C)C(=O)N[C@H](C(=O)N[C@@H](Cc2ccccc2)C[C@H](O)[C@H](Cc2ccccc2)NC(=O)OCc2cncs2)C(C)C)cs1,RF,,RT activity,0.0698 µM
CCc1c([Se]c2ccccc2)n(COCc2ccccc2)c(=O)[nH]c1=O,IIIB,,cytopathic effect,0.02 ± 0.005 µM
CCCc1cc(=O)oc2c3c(c4c(c12)OC(C)(C)C=C4)O[C@@H](C)[C@H](C)[C@H]3O,A17,Pyridinone- and TIBO-resistant,cytopathic effect / MTT,>1 µg/mL
CC(C)CN(C[C@@H](O)[C@H](Cc1ccccc1)NC(=O)O[C@H]1CCOC1)S(=O)(=O)c1ccc(N)cc1,IIIB,I401T,p24 / ELISA,0.0473 µM
Nc1cccc(CN2C(=O)N(Cc3ccc4[nH]ncc4c3)[C@H](CCc3ccccc3)[C@@H](O)[C@H]2Cc2ccccc2)c1,RF,,cytopathic effect / MTT,<0.016 µM
Nc1nc(NC2CC2)c2ncn([C@H]3C=C[C@@H](CO)C3)c2n1,Site-directed mutant,RT-K65R,cytopathic effect / XTT,9.25 µM
CC1=C(CCC(=O)O)c2cc3nc(cc4[nH]c(cc5[nH]c(cc1n2)c(C)c5C(COC(=O)c1ccc(N(C)C)cc1)OC(=O)c1ccc(N(C)C)cc1)c(C)c4C(COC(=O)c1ccc(N(C)C)cc1)OC(=O)c1ccc(N(C)C)cc1)C(C)=C3CCC(=O)O,IIIB,,p24,2.75 ± 0.22 µM

Repeating the final 6 entries:

SMILES | strain or isolate | mutations | read by | value
CCc1c([Se]c2ccccc2)n(COCc2ccccc2)c(=O)[nH]c1=O | IIIB |  | cytopathic effect | 0.02 ± 0.005 µM
CCCc1cc(=O)oc2c3c(c4c(c12)OC(C)(C)C=C4)O[C@@H](C)[C@H](C)[C@H]3O | A17 | Pyridinone- and TIBO-resistant | cytopathic effect / MTT | >1 µg/mL
CC(C)CN(C[C@@H](O)[C@H](Cc1ccccc1)NC(=O)O[C@H]1CCOC1)S(=O)(=O)c1ccc(N)cc1 | IIIB | I401T | p24 / ELISA | 0.0473 µM
Nc1cccc(CN2C(=O)N(Cc3ccc4[nH]ncc4c3)[C@H](CCc3ccccc3)[C@@H](O)[C@H]2Cc2ccccc2)c1 | RF |  | cytopathic effect / MTT | <0.016 µM
Nc1nc(NC2CC2)c2ncn([C@H]3C=C[C@@H](CO)C3)c2n1 | Site-directed mutant | RT-K65R | cytopathic effect / XTT | 9.25 µM
CC1=C(CCC(=O)O)c2cc3nc(cc4[nH]c(cc5[nH]c(cc1n2)c(C)c5C(COC(=O)c1ccc(N(C)C)cc1)OC(=O)c1ccc(N(C)C)cc1)c(C)c4C(COC(=O)c1ccc(N(C)C)cc1)OC(=O)c1ccc(N(C)C)cc1)C(C)=C3CCC(=O)O | IIIB |  | p24 | 2.75 ± 0.22 µM